Compound potency records, mixed from different reports. Data source: NIAID ChemDB in PubChem.

Common to all: growth or infection tests; agent: Mycobacterium tuberculosis

Conditions beyond the fields shown may differ between rows.

compound,cell line,strain or isolate,read by,dose,conditions,measure,changes,result
O=C(Nc1cccc([N+](=O)[O-])c1)c1cc([N+](=O)[O-])ccc1O,,CNCTC MY331/88,,,,MIC,,31 µM
O=C(/N=C/c1cccc([N+](=O)[O-])c1)NCCCN1c2ccccc2Sc2ccccc21,,H37Rv,agar,25 µg/mL,,inhibition,,35%
Cn1c2ccccc2c2nnc(N/N=C/c3ccc([N+](=O)[O-])o3)nc21,,H37Rv,BACTEC,12.5 µg/mL,,inhibition,,46%
O=C1C(c2ccc(Cl)cc2)=[N+]([O-])c2cc3c(cc21)OCO3,,H37Rv,MTT,,,MIC,,50 µM
NC(=O)CC1CCC(OC2CCCCC2)CC1,,,,,,MIC,,0.05 µg/mL
COC(=O)c1cc2c(o1)-c1nccc3c1c(nc1ccccc13)C2=O,,H37Rv,,,,MIC,,0.61 µM
Cc1cc(C(N)=S)no1,,,resazurin,,,MIC bound,,>6.25 µg/mL
COC(=O)c1cc2c(s1)C(=O)c1c(nc3ccccc3c1C)C2=O,,H37Rv,,,,MIC,,18.5 µM
COc1ccc(C2=CC(c3ccc4c(c3)OCO4)c3c(c4ccccc4oc3=O)O2)cc1OC,,H37Rv,BACTEC,12.5 µg/mL,,inhibition,,5%
C[C@@H]1CN(c2c(F)c(N)c3c(=O)c(C(=O)O)cn(C4CC4)c3c2F)C[C@H](C)N1,,,,,,MIC50,,0.2 µg/mL
O=C1CSC(c2ccc(Cl)cc2)N1C(=O)NCCCN1c2ccccc2Sc2ccccc21,,,agar,25 µg/mL,,inhibition,,25%
Cc1ccc(SC2=CC(=O)c3nc4ccccc4c(C)c3C2=O)cc1,,H37Rv,,,,MIC,,9 µM
COc1ccc2cc1-c1cc(ccc1O)C[C@@H]1NCCc3cc4c(cc31)Oc1c(c(OC)cc3c1[C@H](C2)N(C)CC3)O4,,H37Rv-PAS-R ATCC 35821,resazurin,,,MIC,,1.5 µg/mL
C=C(NC(=O)c1csc(-c2nc3c(cc2O)-c2nc(cs2)C(=O)N[C@@H]([C@@H](C)O)C(=O)N/C(=C(\C)OC)c2nc(cs2)C(=O)N[C@@H]2c4nc(cs4)C(=O)N[C@@H](COC(=O)c4c5c6c(cccc6n4O)COC(=O)[C@@H](O[C@H]4C[C@](C)(O)[C@H](N(C)C)[C@H](C)O4)[C@H]2OC5)c2nc-3cs2)n1)C(N)=O,,Clinical isolate 8600,broth dilution,,,MIC,Rifampicin- and isoniazid-resistant,≤2.5 µM
O=C(Oc1ccc(Cl)cc1C(=O)Nc1cccc(C(F)(F)F)c1)c1cnccn1,,extensively drug resistant Praha 131,,,14 d,MIC,,1 µM
O=C(N=Nc1c(O)n(CO)c2ccccc12)c1ccncc1,,Human resistant isolate,,,,MIC,,3 µg/mL
COCN1CCN(COC)C1=O,,H37Rv,BACTEC,12.5 µg/mL,,inhibition,,0%
O=C(N=Nc1c(O)[nH]c2cc(Cl)ccc12)Nc1ccc(Br)cc1,,H37Rv,,6.25 µg/mL,,inhibition,,<20%
COc1ccc2cc1-c1cc(ccc1O)C[C@H]1c3cc4c(cc3CCN1C)Oc1c(OC)cc3c(c1O4)[C@H](C2)N(C)CC3,,H37Ra,resazurin,,,MIC,,3.1 µg/mL
CO/C(C)=C1/NC(=O)[C@H]([C@@H](C)O)NC(=O)c2csc(n2)-c2cc(O)c(-c3nc(C(=O)NCCCN4CCOCC4)cs3)nc2-c2csc(n2)[C@@H]2COC(=O)c3c4c5c(cccc5n3O)COC(=O)[C@@H](O[C@H]3C[C@](C)(O)[C@H](N(C)C)[C@H](C)O3)[C@@H](OC4)[C@H](NC(=O)c3csc1n3)c1nc(cs1)C(=O)N2,,Clinical Isolate 913,broth dilution,,,MIC,,≤2.5 µM
O=C(Nc1ccccc1)c1ccccc1O,,CNCTC MY331/88,,,,MIC,,62.5 µM
O=C(N=Nc1c(O)n(Cc2ccccc2)c2ccccc12)c1ccncc1,,Human sensitive isolate,,,,MIC,,3.5 µg/mL
O=C1CSC(c2cc([N+](=O)[O-])ccc2Cl)N1c1nncs1,,H37Rv,BACTEC,,,MIC bound,,>12.5 µg/mL
O=C(Oc1ccc(Cl)cc1C(=O)Nc1ccc(C(F)(F)F)cc1)c1cnccn1,,multidrug resistant Praha 1,,,21 d,MIC,,0.125 µM
CCC1=C(c2ccc(OC)cc2)C(C)(C)Oc2c1cc(CN1CCCC1)c(O)c2CN1CCCC1,,H37Rv,BACTEC,12.5 µg/mL,,inhibition,,41%
O=C(NCCCN1c2ccccc2Sc2ccccc21)N1C(=O)/C(=C\c2ccc([N+](=O)[O-])cc2)SC1c1ccc([N+](=O)[O-])cc1,,H37Rv,agar,50 µg/mL,,inhibition,,82%
N#Cc1nc(NC(=O)c2ccccc2C(=O)O)c(C#N)[nH]1,,H37Rv,BACTEC,12.5 µg/mL,,inhibition,,0%
CCCCCCCCSC1=CC(=O)c2nc3ccccc3c3ccnc1c23,,H37Rv,,,,MIC,,1 µM
O=C1C(c2ccc(Oc3ccccc3)cc2)=[N+]([O-])c2ccccc21,,H37Rv,MTT,,,EC50,,2.7 µM
O=C([O-])C(F)(F)F.[NH3+]CCNC1=CC(=O)c2nc3ccccc3c3ccnc1c23,,H37Rv,,,,MIC,,5.5 µM
CN=c1ccc2[nH+]c3ccc(N)cc3sc-2c1.[Cl-],,H37Rv,BACTEC,,,MIC bound,,>12.5 µg/mL
COc1cc2c(cc1O)C(Cc1ccc(O)c(Oc3ccc(C4CCc5cc(OC)c(OC)cc5N4C)cc3)c1)N(C)CC2,,,,,,MIC,,1 µg/mL
O=C(Nc1ccc([N+](=O)[O-])cc1)c1ccccc1O,,CNCTC MY331/88,,,,MIC,,8 µM
CCOC(=O)/C=C/c1ccc(OC)cc1,,H37Rv,resazurin,,,MIC,,485 µM
Cc1c2ccncc2c(CN2C(=O)c3ccccc3C2=O)c2c3ccccc3n(C)c12,,H37Rv,resazurin,,,MIC bound,,>6.25 µg/mL
O=C1C(c2ccc([N+](=O)[O-])cc2)=[N+]([O-])c2ccccc21,,H37Rv,MTT,,,MIC,,50 µM
O=C1NN2CCN=C2c2ncccc21,,H37Rv,BACTEC,,,MIC bound,,>12.5 µg/mL
COC1CCCC(OC2CCCCC2OC)C1,,,,,,MIC,,>0.13 µg/mL
CCO/N=C1/C(=O)N(CCOCCOCCOCCN2C(=O)C(=O)c3ccccc32)c2ccc(C)cc21,,,visual reading,,,MIC,MDR,256 µg/mL
COC1=C(OC)C(=O)C(N(C)C)=C(CO)C1=O,,H37Rv,resazurin,6.25 µg/mL,,inhibition,,-17%
O=C(NCCCN1c2ccccc2Sc2ccccc21)N1C(=O)/C(=C\c2ccc(Cl)cc2)SC1c1ccc(Cl)cc1,,H37Rv,agar,25 µg/mL,,inhibition,,32%
O=C(OCCNC1=CC(=O)c2nc3ccccc3c3ccnc1c23)c1cnccn1,,H37Rv,,,,MIC,,2 µM
Nc1ncc(Cl)c2c1ncn2[C@@H]1O[C@H](CO)[C@@H](O)[C@H]1O,,SRICK1::ADOK,,,,MIC,,>100 µg/mL
O=C(Oc1cc(Cl)ccc1C(=O)Nc1ccc(Cl)cc1)c1cnccn1,,H7Rv 331/88,,,14 d,MIC,,2 µM
CC(=O)N1CCN(C23OC4(N5CCN(C(C)=O)CC5)C5C6CC(C7C6C4C72)C53)CC1,,H37Rv,resazurin,6.25 µg/mL,,inhibition,,-7%
O=C(Oc1ccc(Cl)cc1C(=O)Nc1ccc(Cl)c(Cl)c1)c1cnccn1,,multidrug resistant Praha 1,,,14 d,MIC,,0.25 µM
O=C1C(c2ccc(Cl)cc2)=[N+]([O-])c2ccccc21,,H37Rv,MTT,,,MIC,,25 µM
CCO/N=C1/C(=O)N(CCOCCOCCOCCN2C(=O)C(=O)c3cc(F)ccc32)c2ccc(F)cc21,,H37Rv,visual reading,,,MIC,,62.5 µg/mL
O=S(=O)(O)c1ccc2cc(N=Nc3cc(S(=O)(=O)O)c4cccnc4c3O)ccc2c1,,H37Rv,BACTEC,,,MIC bound,,>6.25 µg/mL
O=C(NCCCN1c2ccccc2Sc2ccccc21)N1C(=O)/C(=C\c2cccc(Br)c2)SC1c1cccc(Br)c1,,H37Rv,agar,25 µg/mL,,inhibition,,30%
Cc1cc2c(ncn2[C@@H]2O[C@H](CO)[C@@H](O)[C@H]2O)c(C)n1,,H37Ra,,,,MIC,,>100 µg/mL
O=C(Nc1ccc(Cn2ccnc2)cc1)c1ccc(Cl)cc1,,103471,,,,MIC,,>16 µg/mL
O=C(NCCCN1c2ccccc2Sc2ccccc21)N1C(=O)/C(=C\c2cccc([N+](=O)[O-])c2)SC1c1cccc([N+](=O)[O-])c1,,H37Rv,agar,50 µg/mL,,inhibition,,83%
CN1CCN(Cc2cccc(NC(=O)c3ccc(-c4ccccc4)cc3)c2)CC1,,103471,,,,MIC,,8 µg/mL
CCCC1=[N+]([O-])c2ccccc2C1=O,,H37Rv,MTT,,,MIC,,100 µM
CCCCCCCCSC1=CC(=O)c2nc3ccccc3c(C)c2C1=O,,H37Rv,,,,MIC,,17 µM
CC1=CC(=O)c2c(O)cccc2C1=O,,MTCS2,,,,MIC,,39.06 µg/mL
O=C(Nc1cccc([N+](=O)[O-])c1)c1cc(Br)ccc1O,,CNCTC MY331/88,,,,MIC,,8 µM
NNC(=O)c1ccncc1,,Clinical isolate 11677,broth dilution,,,MIC,,≤0.2 µM
Nc1nc(F)cc2c1ncn2[C@@H]1O[C@H](CO)[C@@H](O)[C@H]1O,,H37Ra,,,,MIC,,1–10 µg/mL
O=C(Oc1cc(Cl)ccc1C(=O)Nc1cccc(F)c1)c1cnccn1,,H37Rv 331/88,,,14 d,MIC,,2 µM
CO/N=C1/C(=O)N(CCOCCOCCOCCN2C(=O)C(=O)c3ccccc32)c2ccc(C)cc21,,,visual reading,,,MIC,MDR,256 µg/mL
O=C(/N=C/c1ccccc1)NCCCN1c2ccccc2Sc2ccccc21,,H37Rv,agar,25 µg/mL,,inhibition,,18%
Cc1ccc(O)c(C(=O)Nc2ccc(C#N)cc2)c1,,CNCTC MY331/88,,,,MIC,,500 µM
CC1COCC(C)N1C(=O)c1cccnc1,,H37Rv,resazurin,6.25 µg/mL,,inhibition,,14%
O=C(Oc1cc(Cl)ccc1C(=O)Nc1ccc(C(F)(F)F)cc1)c1cnccn1,,multidrug resistant 7357/1998,,,14 d,MIC,,0.5 µM
Cc1cc(N=C2C=CC(=[N+](C)C)C=C2)c(N)cc1N,,H37Rv,BACTEC,,,MIC,,12.5 µg/mL
O=C(Nc1ccccc1Cn1ccnc1)c1ccc(Cl)cc1,,103471,,,,MIC,,>16 µg/mL
Cn1c(O)c(O)c(=O)n(C)c1=O,,H37Rv,BACTEC,12.5 µg/mL,,inhibition,,14%
CO/N=C1/C(=O)N(CCOCCOCCOCCN2C(=O)C(=O)c3cc(C)ccc32)c2ccccc21,,H37Rv,visual reading,,,MIC,,128 µg/mL
CC(=O)NC(=O)NS(=O)(=O)c1ccc(N)cc1,,H37Rv,BACTEC,12.5 µg/mL,,inhibition,,0%
O=C(/C=C/c1ccccc1)Nc1ccc(Cn2ccnc2)cc1,,103471,,,,MIC,,>16 µg/mL
CO/C(C)=C1/NC(=O)[C@H]([C@@H](C)O)NC(=O)c2csc(n2)-c2cc(O)c(-c3nc(C(=O)NC(C)c4nc(-c5ccccn5)ns4)cs3)nc2-c2csc(n2)[C@@H]2COC(=O)c3c4c5c(cccc5n3O)COC(=O)[C@@H](O[C@H]3C[C@](C)(O)[C@H](N(C)C)[C@H](C)O3)[C@@H](OC4)[C@H](NC(=O)c3csc1n3)c1nc(cs1)C(=O)N2,,H37Rv,broth dilution,,,MIC,,≤10 µM
CC(C)N=c1cc2n(-c3ccc(Cl)cc3)c3ccccc3nc-2cc1Nc1ccc(Cl)cc1,VERO,H37Rv,,,,MIC,,≤0.1 µg/mL
COc1ccc(C(=O)Nc2cccc(F)c2)c(O)c1,,CNCTC MY331/88,,,,MIC,,8 µM
CO/N=C1/C(=O)N(CCOCCOCCOCCn2c(O)c(N=O)c3ccccc32)c2ccc(C)cc21,,,visual reading,,,MIC,MDR,128 µg/mL
CCSC1=CC(=O)c2nc3ccccc3c3ccnc1c23,,H37Rv,,,,MIC,,0.34 µM
O=C1/C=C2/C=CC=CN2C(=O)/C=C2/C=CC=CN12,,H37Rv,BACTEC,12.5 µg/mL,,inhibition,,17%
c1ccc(OC2CCCc3ncccc32)cc1,,,,,,MIC,,>0.05 µg/mL
CSC(=S)N/N=C(\C)c1ccccn1,,H37Rv,BACTEC,128 µg/mL,,inhibition,,100%
O=C1C(c2ccc(Oc3ccccc3)cc2)=[N+]([O-])c2cc3c(cc21)OCO3,,H37Rv,MTT,,,MIC,,50 µM

A second listing of 5 rows from above:

compound | cell line | strain or isolate | read by | dose | conditions | measure | changes | result
O=S(=O)(O)c1ccc2cc(N=Nc3cc(S(=O)(=O)O)c4cccnc4c3O)ccc2c1 |  | H37Rv | BACTEC |  |  | MIC bound |  | >6.25 µg/mL
O=C1CSC(c2ccc(Cl)cc2)N1C(=O)NCCCN1c2ccccc2Sc2ccccc21 |  |  | agar | 25 µg/mL |  | inhibition |  | 25%
CCOC(=O)/C=C/c1ccc(OC)cc1 |  | H37Rv | resazurin |  |  | MIC |  | 485 µM
CCO/N=C1/C(=O)N(CCOCCOCCOCCN2C(=O)C(=O)c3ccccc32)c2ccc(C)cc21 |  |  | visual reading |  |  | MIC | MDR | 256 µg/mL
O=C1NN2CCN=C2c2ncccc21 |  | H37Rv | BACTEC |  |  | MIC bound |  | >12.5 µg/mL

An empty or dashed field is not shown. Percent inhibition refers to the dose given; in toxicity tests it is the harm to the cells. a–b is a range or a potency band. MIC bound comes from a single tested concentration. MIC50, MIC90 and the like: level of inhibition, or share of isolates inhibited. ECn is the concentration giving n% inhibition of infection, replication or growth.